Pooled drug test results. Numbers come from NIAID ChemDB, via PubChem.

Common to all: growth or infection tests; species: Candida albicans; measure: MIC

Lines come from different laboratories, so protocols vary. Blank or dashed fields: not listed here.

SMILES,strain or isolate,read by,result
Cn1c2c3ccccc3nc-2cc2ccccc21,B311,,250 µg/mL
COc1cc(O)c2c(c1)C(=O)c1c(cc3c(c1O)-c1c(cc(C)c(C(=O)NC(C)C(=O)O)c1O)[C@H](OC1OC(C)C(F)CC1OC1OCC(O)C(O)C1O)[C@H]3O)C2=O,A9540,,>100 µg/mL
Cn1nc(-c2ccc(Br)cc2)[n+]([O-])c2c(=O)n(-c3ccccc3)c(=O)nc1-2,IFO 0583,,20 µg/mL
C[C@@H]1[C@H](O)[C@@H](C)/C=C/C=C/C=C/C=C/C=C/C=C/C=C/[C@H](OC2O[C@@H](C)[C@H](O)[C@@H](N)[C@H]2O)C[C@@H]2OC(O)(C[C@@H](O)C[C@@H](O)[C@H](O)CC[C@@H](O)C[C@@H](O)CC(=O)C[C@H]1C)C[C@H](O)[C@H]2C(=O)O,MTCC 183,,300 µg/mL
Clc1ccc(-c2c(C(c3ccccc3)n3ccnc3)cnn2-c2ccc(Cl)cc2)cc1,,,66.6 µM
CNC1C(C)OC(O[C@H]2c3cc(C)c(C(=O)NC(C)C(=O)O)c(O)c3-c3c(cc4c(c3O)C(=O)c3cc(OC)cc(O)c3C4=O)[C@@H]2O)C(O)C1OC1OCC(O)C(O)C1OC1OCC(O)C(O)C1O,A9540,,25 µg/mL
CCN1C(=O)C(=O)N(CC)C1=S,CA10,,>100 µg/mL
COc1cc(O)c2c(c1)C(=O)c1c(cc3c(c1O)-c1c(cc(C)c(C(=O)NC(C)C(=O)O)c1O)[C@H](OC1OC(C)C(F)C(OC4OCC(O)C(O)C4O)C1O)[C@H]3O)C2=O,A9540,,12.5 µg/mL
C=C(Cl)/C=C/[C@H](O)CC(=C)C[C@H]1OC2[C@@H](O)[C@]3(O)C[C@@H](O)[C@H](C)[C@H](CCC/C=C\[C@@H]4C[C@@H](O)C[C@]5(C[C@H](OC)CC(CC(=O)[C@@H](C)[C@H](OC(C)=O)[C@@H](C)C(=C)C[C@@H]6C[C@@](C)(O)C[C@]7(C[C@H](OC(C)=O)CC(CC(=O)O[C@@H]([C@@H]1O)[C@H]2C)O7)O6)O5)O4)O3,ATCC 60193,,3.13 µg/mL
c1ccc2c(c1)cc1[nH]c3ccccc3c1[n+]2CC1CCCC1,B311,,250 µg/mL
NC(=O)c1cccc(C(F)(F)F)c1SSc1c(C(N)=O)cccc1C(F)(F)F,ATCC 2091,,30 µg/mL
COC[n+]1c2ccccc2cc2[nH]c3ccccc3c21,B311,,250 µg/mL
Clc1cccc(N2CCN(c3nc(NCCNc4ncnc5c(Br)cc(Br)cc45)nc(NC4CC4)n3)CC2)c1,MTCC 183,agar,100 µg/mL
CCCCNC(=O)c1ccc(F)cc1SSc1cc(F)ccc1C(=O)NCCCC,ATCC 2091,,7.5 µg/mL
CN[C@@H]1[C@H](O)[C@@H](O)[C@H](O[C@H]2c3cc(C)c(C(=O)N[C@H](C)C(=O)O)c(O)c3-c3c(cc4c(c3O)C(=O)c3cc(OC)cc(O)c3C4=O)[C@@H]2O)O[C@@H]1C,A9540,,3.1 µg/mL
CCC(C)n1ncn(-c2ccc(N3CCN(c4ccc(OC[C@H]5CO[C@](Cn6cncn6)(c6ccc(Cl)cc6Cl)O5)cc4)CC3)cc2)c1=O,Isogenic isolate 6 MDR1 (25X),,0.03 µg/mL
Cn1nc(-c2ccccc2)[n+]([O-])c2c(=O)n(-c3ccccc3)c(=O)nc1-2,IFO 0583,,50 µg/mL
CCCCNC(=O)c1cccc(C(F)(F)F)c1SSc1c(C(=O)NCCCC)cccc1C(F)(F)F,ATCC 2091,,30 µg/mL
Cn1nc(-c2ccc(Cl)c(Cl)c2)nc2c(=O)n(C)c(=O)nc1-2,IFO 0583,,5 µg/mL
CC1(C)N=C([Se])NC1=O,CA10,,0.195 µg/mL
C=CC[n+]1c2ccccc2cc2[nH]c3ccccc3c21,B311,,250 µg/mL
O=c1[nH]sc2cc(F)ccc12,ATCC 2091,,15 µg/mL
Cn1nc(-c2ccc(Cl)cc2)[n+]([O-])c2c(=O)n(-c3ccccc3)c(=O)nc1-2,IFO 0583,,50 µg/mL
COc1cc(O)c2c(c1)C(=O)c1c(cc3c(c1O)-c1c(cc(C)c(C(=O)NC(C)C(=O)O)c1O)[C@H](OC1OC(C)CC(O)C1O)[C@H]3O)C2=O,A9540,,3.1 µg/mL
Brc1cc(Br)c2ncnc(NCCNc3nc(NC4CC4)nc(N4CCN(Cc5ccccc5)CC4)n3)c2c1,MTCC 183,agar,100 µg/mL
CCCCn1sc2c(F)cccc2c1=O,ATCC 2091,,20 µg/mL
C[C@H]1[C@H](O)[C@@H](C)/C=C/C=C/C=C/C=C/C=C/C=C/C=C/[C@H](O[C@@H]2O[C@H](C)[C@@H](O)[C@H](N)[C@@H]2O)C[C@@H]2O[C@](O)(C[C@@H](O)C[C@@H](O)CC[C@H](O)[C@@H](O)C[C@@H](O)CC(=O)O[C@H]1C)C[C@H](O)[C@H]2C(=O)O,,,3.7 µM
O=c1[nH]sc2cccc(F)c12,ATCC 2091,,20 µg/mL
Cn1ccn(C)c1=[Se],CA10,,>100 µg/mL
COc1cc(O)c2c(c1)C(=O)c1c(cc3c(c1O)-c1c(cc(C)c(C(=O)NC(C)C(=O)O)c1O)[C@H](OC1OC(C)C(F)C(O)C1O)[C@H]3O)C2=O,A9540,,6.3 µg/mL
O=C1C(=O)N(c2ccccc2)C(=S)N1c1ccccc1,CA10,,>100 µg/mL
Cn1nc(-c2ccc(Cl)cc2)[n+]([O-])c2c(=O)n(C)c(=O)nc1-2,IFO 0583,,50 µg/mL
Clc1ccc(-c2c(C(c3ccccc3)n3ccnc3)cnn2-c2ccc(Cl)cc2Cl)cc1,,,11.1 µM
CCCCn1sc2ccc(F)cc2c1=O,ATCC 2091,,2.5 µg/mL
Clc1nc(NC2CC2)nc(N2CCC(Cc3ccccc3)CC2)n1,MTCC 183,agar,100 µg/mL
CNC1C(C)OC(O[C@H]2c3cc(C)c(C(=O)NC(C)C(=O)OC)c(O)c3-c3c(cc4c(c3O)C(=O)c3cc(OC)cc(O)c3C4=O)[C@@H]2O)C(O)C1OC1OC(CO)C(O)C1O,A9540,,50 µg/mL
COc1ccc(N2CCN(c3nc(Cl)nc(NC4CC4)n3)CC2)cc1,MTCC 183,agar,100 µg/mL
COc1ccnc(C(=O)N[C@H]2COC(=O)[C@H](Cc3ccccc3)[C@@H](OC(=O)C(C)C)[C@H](C)OC2=O)c1O,IFO1061,,0.39 µg/mL
CC(C)N1CCN(c2nc(Cl)nc(NC3CC3)n2)CC1,MTCC 183,agar,200 µg/mL
Cn1nc(-c2ccc(Br)cc2)nc2c(=O)n(-c3ccccc3)c(=O)nc1-2,IFO 0583,,50 µg/mL
CCN1CCN(c2nc(Cl)nc(NC3CC3)n2)CC1,MTCC 183,agar,100 µg/mL
CCC(C)CC(C)CCCCCCCCC(=O)N[C@H]1C[C@@H](O)[C@@H](O)NC(=O)[C@@H]2[C@@H](O)CCN2C(=O)[C@H]([C@H](O)CC(N)=O)NC(=O)[C@H]([C@H](O)[C@@H](O)c2ccc(O)cc2)NC(=O)[C@@H]2C[C@@H](O)CN2C(=O)[C@H]([C@@H](C)O)NC1=O,,,0.01 µg/mL

4 of the rows above, restated:

Cn1nc(-c2ccc(Br)cc2)nc2c(=O)n(-c3ccccc3)c(=O)nc1-2 ; strain or isolate: IFO 0583 ; result: 50 µg/mL
COc1cc(O)c2c(c1)C(=O)c1c(cc3c(c1O)-c1c(cc(C)c(C(=O)NC(C)C(=O)O)c1O)[C@H](OC1OC(C)CC(O)C1O)[C@H]3O)C2=O ; strain or isolate: A9540 ; result: 3.1 µg/mL
NC(=O)c1cccc(C(F)(F)F)c1SSc1c(C(N)=O)cccc1C(F)(F)F ; strain or isolate: ATCC 2091 ; result: 30 µg/mL
Cn1c2c3ccccc3nc-2cc2ccccc21 ; strain or isolate: B311 ; result: 250 µg/mL